Source: patent publication US20120108492A1, “LIGAND-SPECIFIC NON-ANTIBODY COMPOUNDS THAT INHIBIT CR2 ACTIVATION AND METHODS OF USE THEREOF” (The Regents of the University of Colorado, priority 2008, published 2012)

Each substance was assayed against full-length wild-type human CR2 on transfected K562 erythroleukemia cells (human) (assay: flow cytometry, PE-conjugated gp350-biotin on CR2-transfected K562 cells).
“EBV gp350 E214A (from UniProt P03200 1-470; P0ABD8 70-156) (ligand)” was tested, and the % binding relative to wild-type EBV gp350 was 76.2%. “EBV gp350 D215A (from UniProt P03200 1-470; P0ABD8 70-156) (ligand)” gave a % binding relative to wild-type EBV gp350 of 86.5%. For “EBV gp350 E201A (from UniProt P03200 1-470; P0ABD8 70-156) (ligand)”, the % binding relative to wild-type EBV gp350 was 103%.
